The source of these data is publication PMC8982864 (PLoS Biology, 2022).

The target in assay [1] is full-length Clostridioides difficile Toxin B (TcdB), C-terminal 6XHis-tag (UniProt P18177). As to the kind of experiment: ELISA. Particulars: parent: est. 100; read off a plot.
In assay [2] the target is full-length Clostridioides difficile Toxin B (TcdB), C-terminal 6XHis-tag (Clostridioides difficile (VPI 10463 …, UniProt P18177 1-2366)). As to the kind of experiment: BLI.

For the molecule “CSPG4 domain 1 fragment D1_(401-560) with C-terminal GFP tag (from UniProt Q6UVK1) E460A”, in assay [1], the percent of parent is 93%.
Consider “CSPG4 domain 1 fragment D1_(401-560) with C-terminal GFP tag (from UniProt Q6UVK1) D457N”, for which the percent of parent in assay [1] worked out at 77%.
On the same count and under the same terms, the figure for “CSPG4 domain 1 fragment D1_(401-560) with C-terminal GFP tag (from UniProt Q6UVK1) R450A” is 20%; for “CSPG4 domain 1 fragment D1_(401-560) with C-terminal GFP tag (from UniProt Q6UVK1) P485del; I486del” it is 18%.

B1: CSPG4 domain 1 fragment D1_(401-560) with C-terminal GFP tag (domain or fragment, UniProt Q6UVK1 401-560, looked up)
chain: LAPEAWPAMELPEPCVPEPGLPPVFANFTQLLTISPLVVAEGGTAWLEWRHVQPTLDLMEAELRKSQVLFSVTRGARHGELELDIPGAQARKMFTLLDVVNRKARFIHDGSEDTSDQLVLEVSVTARVPMPSCLRRGQTYLLPIQVNPVNDPPHIIFPHG
modifications: glycan density on Asn427 (predicted N-linked glycosylation)
notes: not shown: GFP, C-terminal, kept
Molecule B1 yielded a Kd in assay [2] of roughly 10 nM.
